Measured values from several laboratories, pooled; numbers as filed in NIAID ChemDB.

Shared fields: whole-cell or culture tests; agent: Herpes simplex virus 1

ECn is the concentration giving n% inhibition of infection, replication or growth.

CC1(CO)CCC(Cn2ccc(=O)[nH]c2=O)C1(C)C ; read-out: EC50 ; read by: cytopathic effect ; cell line: E6SM ; strain: KOS ; result: >400 µg/mL
Nc1nc(NCC2CC2)c2ncn(/C=C3/C[C@@H]3CO)c2n1 ; read-out: EC50 ; read by: cytopathic effect ; cell line: HFF ; result: >349 µM
Cn1cc(C(=O)NCc2ccc(Cl)cc2)c(=O)c2cc(CN3CCOCC3)ccc21 ; read-out: EC50 ; read by: plaque count ; cell line: VERO ; strain: KOS ; result: 3.8 µM
Nc1nc(Cl)c2ncn([C@@H](CCO)OCCO)c2n1 ; read-out: EC50 ; read by: cytopathic effect ; cell line: HFF ; result: >200 µM
O=C(O[C@@H]1O[C@@H]2COC(=O)c3cc(O)c(O)c(O)c3-c3c(cc(O)c(O)c3O)C(=O)O[C@H]2[C@@H]2OC(=O)c3cc(O)c(O)c(O)c3-c3c(cc(O)c(O)c3O)C(=O)O[C@@H]12)c1cc(O)c(O)c(O)c1 ; read-out: EC50 ; read by: plaque count ; cell line: CV-1 ; strain: HF ; result: 0.044 µg/mL
Nc1nc2c(ncn2COCCO)c(=O)[nH]1 ; read-out: EC50 ; read by: cytopathic effect ; cell line: HFF ; strain: V61665 (acyclovir-susceptible) ; result: 0.5 µg/mL
C=CCOc1nc(N)nc2c1ncn2/C=C1/C[C@@H]1CO ; read-out: EC50 ; read by: cytopathic effect ; cell line: HFF ; result: >366 µM
O=c1[nH]c(=O)n([C@H]2C[C@H](O)[C@@H](CO)O2)cc1/C=C/C(F)(F)F ; read-out: EC50 ; read by: plaque count ; cell line: HELA BU ; strain: KOS ; result: <10 µM
CCCSc1nc(N)nc2c1ncn2/C=C1/C[C@@H]1CO ; read-out: EC50 ; read by: cytopathic effect ; cell line: HFF ; result: >343 µM
O=C(OC[C@H]1O[C@@H](OC(=O)c2cc(O)c(O)c(O)c2)[C@H](O)[C@@H](OC(=O)c2cc(O)c(O)c(O)c2)[C@@H]1O)c1cc(O)c(O)c(O)c1 ; read-out: EC50 ; read by: plaque count ; cell line: VERO ; strain: F ; result: 0.043 µg/mL
Cc1cn([C@@H]2O[C@H](CO)[C@@H](O)[C@@H]2F)c(=O)[nH]c1=O ; read-out: MIC ; result: 0.013 µM
COc1cccc(-c2ccc(C(Nc3ccccc3)N3c4ccccc4Sc4cc(O)c(CN5C(=O)c6ccccc6C5=O)cc43)cc2)c1 ; read-out: EC50 ; read by: cytopathic effect ; strain: 753166 ; result: 7.8 µg/mL
Nc1nc2c(ncn2/C=C2\CC2(CO)CO)c(=O)[nH]1 ; read-out: EC50 ; read by: cytopathic effect ; cell line: HFF ; result: >380 µM
CSc1ccc(C(c2ccc(O)cc2)c2ccc(O)cc2)cc1 ; read-out: EC50 ; read by: plaque count ; cell line: VERO ; strain: KOS ; result: 3.4 µg/mL
CCc1cn([C@@H]2O[C@H](CO)[C@@H](O)[C@@H]2F)c(=O)[nH]c1=O ; read-out: MIC ; result: 0.024 µM
OC[C@H]1O[C@@H](c2ccccc2)C[C@@H]1O ; read-out: EC50 ; read by: cytopathic effect ; cell line: E6SM ; strain: KOS ; result: >400 µg/mL
CC1(CO)CCC(Cn2nnc3c(N)ncnc32)C1(C)C ; read-out: EC50 ; read by: cytopathic effect ; cell line: E6SM ; strain: TK-/TK+ (VMW 1837) ; result: 70 µg/mL
O=C(OC[C@H]1O[C@@H](OC(=O)c2cc(O)c(O)c(O)c2)[C@H](OC(=O)c2cc(O)c(O)c(O)c2)[C@@H](OC(=O)c2cc(O)c(O)c(O)c2)[C@@H]1OC(=O)c1cc(O)c(O)c(O)c1)c1cc(O)c(O)c(O)c1 ; read-out: EC50 ; read by: plaque count ; cell line: MRC-5 ; result: 4.12 µM
CC1(CO)CCC(Cn2nnc3c(=O)[nH]cnc32)C1(C)C ; read-out: EC50 ; read by: cytopathic effect ; cell line: E6SM ; strain: TK-/TK+ (VMW 1837) ; result: >200 µg/mL
C/C=C/c1cn([C@H]2C[C@H](O)[C@@H](CO)O2)c(=O)[nH]c1=O ; read-out: EC50 ; read by: plaque count ; cell line: HELA BU ; strain: B2006 (TK-) ; result: >10 µM
Nc1ncnc2c1ncn2OCCOCP(=O)(O)O ; read-out: EC50 ; read by: cytopathic effect ; cell line: MRC-5 ; strain: SC16 ; result: >350 µg/mL
O=c1[nH]c(=O)n([C@@H]2O[C@H](CO)[C@@H](O)[C@@H]2O)cc1/C=C/Br ; read-out: EC50 ; read by: plaque count ; cell line: HEL ; strain: VR-3 ; result: 0.08 µM
O=C(OC1OC2COC(=O)c3cc(Oc4c(C(=O)OC5OC6COC(=O)c7cc(O)c(O)c(O)c7-c7c(cc(O)c(O)c7O)C(=O)OC6C(OC(=O)c6cc(O)c(O)c(O)c6)C5OC(=O)c5cc(O)c(O)c(O)c5)cc(O)c(O)c4O)c(O)c(O)c3-c3c(cc(O)c(O)c3O)C(=O)OC2C(OC(=O)c2cc(O)c(O)c(O)c2)C1OC(=O)c1cc(O)c(O)c(O)c1)c1cc(O)c(O)c(O)c1 ; read-out: EC50 ; read by: plaque count ; cell line: CV-1 ; strain: HF ; result: 0.034 µg/mL
Nc1nc(=O)n([C@@H]2O[C@H](CO)[C@@H](O)[C@@H]2F)cc1I ; read-out: EC50 ; read by: cytopathic effect ; cell line: VERO ; result: <0.01 µg/mL
Oc1c(Br)cc(C(c2ccc(C(F)(F)F)cc2)c2cc(Br)c(O)c(Br)c2)cc1Br ; read-out: EC50 ; read by: plaque count ; cell line: VERO ; strain: KOS ; result: 5.2 µg/mL
Cc1cn([C@@H]2O[C@H](CO)[C@@H](O)[C@@H]2F)c(=O)[nH]c1=O ; read-out: EC50 ; read by: cytopathic effect ; cell line: VERO ; result: <0.03 µg/mL
O=c1[nH]cnc2c1ncn2OCCOCP(=O)(O)O ; read-out: EC50 ; read by: cytopathic effect ; cell line: MRC-5 ; strain: SC16 ; result: >340 µg/mL
N[C@H]1[C@H](O)[C@H](n2cc(/C=C/Br)c(=O)[nH]c2=O)O[C@@H]1CO ; read-out: MIC ; result: 0.3 µM
CO[C@H]1[C@H](OC)[C@@H](CO)O[C@H]1n1cnc2c(N)ncnc21 ; read-out: EC50 ; read by: cytopathic effect ; cell line: PRK ; result: >100 µg/mL
O=c1ccn([C@@H]2O[C@H](CO)[C@@H](O)[C@@H]2F)c(=O)[nH]1 ; read-out: MIC ; result: 0.035 µM
Cn1cc(C(=O)NCc2ccc(Cl)cc2)c(=O)c2cc(/C=C\CO)cc(F)c21 ; read-out: EC50 ; read by: plaque count ; cell line: VERO ; strain: DJL ; result: 2.5 µM
Nc1nc2c(ncn2/C=C2/CC2(CO)CO)c(=O)[nH]1 ; read-out: EC50 ; read by: cytopathic effect ; cell line: HFF ; result: >380 µM
O=C(O)CP(=O)(O)O ; read-out: EC50 ; read by: cytopathic effect ; cell line: WI-38 ; result: <100 µg/mL
OC[C@H]1O[C@@H](c2ccccc2)[C@H](O)[C@@H]1O ; read-out: EC50 ; read by: cytopathic effect ; cell line: E6SM ; strain: KOS ; result: >400 µg/mL
Cc1cn(C(CCO)SCCO)c(=O)[nH]c1=O ; read-out: EC50 ; read by: cytopathic effect ; cell line: HFF ; result: >200 µM
C#CCNc1nc(N)nc2c1ncn2/C=C1/C[C@@H]1CO ; read-out: EC50 ; read by: cytopathic effect ; cell line: HFF ; result: >370 µM
Nc1nc2c(ncn2[C@@H](CCO)OCCO)c(=O)[nH]1 ; read-out: EC50 ; read by: cytopathic effect ; cell line: HFF ; result: >200 µM
Oc1ccc(C(c2ccc(O)cc2)c2ccc(Cl)cc2)cc1 ; read-out: EC50 ; read by: plaque count ; cell line: VERO ; strain: KOS ; result: 1.8 µg/mL
Nc1nc2c(ncn2CCC(O)CO)c(=O)[nH]1 ; read-out: MIC ; result: 4 µM
O=C(O)CP(=O)(O)O ; read-out: EC50 ; read by: plaque count ; cell line: HEL ; strain: VR/TK- ; result: 118 µM
O=c1[nH]c(=O)n([C@H]2C[C@H](O)[C@@H](CO)O2)cc1/C=C/Br ; read-out: EC50 ; read by: cytopathic effect ; cell line: VERO ; result: <0.001 µg/mL

For reference, 2 entries again:

smiles,read-out,read by,cell line,strain,result
Oc1c(Br)cc(C(c2ccc(C(F)(F)F)cc2)c2cc(Br)c(O)c(Br)c2)cc1Br,EC50,plaque count,VERO,KOS,5.2 µg/mL
Nc1nc2c(ncn2CCC(O)CO)c(=O)[nH]1,MIC,-,-,-,4 µM

Rows are shuffled and stem from different studies. An empty or dashed field is not shown.